Assay: in vitro
Conditions: mouse, serum

CC(C)C[C@@H]1NC(=O)[C@H](CC(=O)O)NC(=O)CNC(=O)[C@H](CCCNC(=N)N)NC(=O)[C@H](CC(C)C)NC(=O)[C@H](CC(N)=O)NC(=O)[C@@H]2C[C@@H](O)CN2C(=O)[C@H](C(C)C)NC(=O)[C@@H](NC(=O)[C@H](CC(N)=O)NC(=O)CCCC[C@@H]2SC[C@@H]3NC(=O)N[C@@H]32)CSc2c(F)c(F)c(c(F)c2F)-c2c(F)c(F)c(c(F)c2F)SC[C@@H](C(=O)N[C@H](CCCNC(=N)N)C(=O)N[C@H](C(=O)N[C@@H](CCCCN)C(=O)N[C@H](C)C(N)=O)[C@@H](C)O)NC(=O)[C@H](C(C)C)NC(=O)[C@H](CCCCN)NC(=O)[C@H](CCC(N)=O)NC(=O)[C@H](C)NC(=O)[C@H](CC(C)C)NC(=O)[C@H](C(C)C)NC(=O)[C@H](CCC(N)=O)NC1=O [C2C18 Ph RDTKAD DFBP]
remaining at 24 h: 10.9%
